Anti-infective test results gathered from many reports (values: NIAID ChemDB through PubChem).

Shared fields: host cell toxicity; measure: CC50

Blank or dashed fields: not listed here. Conditions beyond the fields shown may differ between rows. CCn is the concentration with n% toxicity to the cells.

structure	setting	method	cell line	value
COc1cc([C@@H]2c3cc4c(cc3[C@H](OC(C)=O)[C@@H]3COC(=O)[C@@H]23)OCO4)cc2nc3cc(C)c(C)cc3nc12	-	-	HT-29	4.8 µM
CC1C(=O)N(O)c2ncc(Br)cc2C1O	7 d	MTS	HepDES19	37.7 µM
C[C@H](Cn1cnc2c(N)ncnc21)OCP(=O)(O)O	-	-	SupT1	>250 µg/mL
O=[N+]([O-])c1c(C2CCCCCC2)ncnc1N1CC[N+]2(CC1)CC[N+]1(CCN(c3ncnc(C4CCCCCC4)c3[N+](=O)[O-])CC1)CC2	-	-	GMK	>67.8 µg/mL
COc1cc([C@@H]2c3cc4c(cc3[C@H](OC(C)=O)[C@@H]3COC(=O)[C@@H]23)OCO4)cc2c1OC1(N3CCOCC3)CCCCC1O2	-	-	MEL-28	8.66 µM
O=c1c2cc(O)ccc2oc2cc(O)cc(O)c12	-	sulforhodamine / absorbance	P-388	44.96 µM
Nc1[nH]n2c(=O)cc(CN3CC[N+]4(CC3)CC[N+]3(CCN(Cc5cc(=O)n6[nH]c(N)c([N+](=O)[O-])c6n5)CC3)CC4)nc2c1[N+](=O)[O-]	-	-	GMK	>70.3 µg/mL
O=c1cc(-c2ccc(O)c(-c3c(O)cc4oc(-c5ccc(O)cc5)cc(=O)c4c3O)c2)oc2cc(O)cc(O)c12	-	visual reading	BSC-1	<14 µg/mL
Cc1cn([C@H]2C[C@H](N=[N+]=[N-])[C@@H](CO)O2)c(=O)[nH]c1=O	-	-	HT-1080	5 µM
O=[N+]([O-])c1cc(C(F)(F)F)ccc1N1CC[N+]2(CC1)CC[N+]1(CCN(c3ccc(C(F)(F)F)cc3[N+](=O)[O-])CC1)CC2	-	-	GMK	>296.1 µg/mL
CCCCCCCCCCCCCCCCOP(=O)([O-])OCCC[N+](C)(C)Cc1ccccc1	-	MTT	MDA	43.7 µM
N=c1ncn(CC(CO)OCP(=O)(O)O)c2nc[nH]c12	-	-	HB611	>200 µM
Cc1c2ccncc2c(C)c2c1[nH]c1ccccc12	-	-	BC	0.3 µg/mL
Nc1ncnc2c1ncn2CCP(=O)(O)O	-	-	HB611	>400 µM
O=[N+]([O-])c1c(Cl)ncnc1N1CC[N+]2(CC1)CC[N+]1(CCN(c3ncnc(Cl)c3[N+](=O)[O-])CC1)CC2	-	-	L929	67.2 µg/mL
CC(C)=CC[C@H]1C[C@@]2(C[C@H]3CCC(C)(C)C=C3C)C(=O)[C@](C(=O)c3ccccc3)(C(=O)C3=C2OC(C)(C)C=C3)C1(C)C	-	sulforhodamine / absorbance	P-388	18.35 µM
C[C@H]1c2ccoc2C[C@H]2[C@H]1[C@@H](O)[C@@H](OC(=O)c1ccccc1)[C@@]1(O)C(C)(C)CCC[C@]21C	-	-	NCI-H187	2.9 µg/mL
Nc1ccn(CCOCP(=O)(O)O)c(=O)n1	-	-	HB611	>400 µM
Nc1nc2c(ncn2CCC(CO)CO)c(=O)[nH]1	-	-	BCBL-1	132 µM
CCCCC1CN(S(=O)(=O)c2cn(C)cn2)CCC12CCN(C1(C)CCN(C(=O)c3c(C)ncnc3C)CC1)CC2	-	-	CEM-R5	0.007 µM
Nc1nc(N)c2ncn([C@H]3CO[C@@H](CO)O3)c2n1	-	-	HT-1080	>500 µM
Nc1nccc2c1ncn2C[C@@H](CO)OCP(=O)(O)O	-	-	HB611	32 µM
Nc1ccn([C@H]2CC[C@@H](CO)O2)c(=O)n1	-	-	CBMC	29 µM
Nc1ncnc2c1ncn2C[C@@H](CO)OCP(=O)(O)O	-	-	BCBL-1	191 µM
Nc1nc2c(ncn2C[C@H](CO)OCP(=O)(O)O)c(=O)[nH]1	-	-	HB611	<200 µM
NC1=NC2C(C=CN2CC(CO)CCO)C(=O)N1	-	-	BCBL-1	471 µM
O=c1[nH]cnc(N2CC[N+]3(CC2)CC[N+]2(CCN(c4nc[nH]c(=O)c4[N+](=O)[O-])CC2)CC3)c1[N+](=O)[O-]	-	-	K562	150 µg/mL
COc1cc(O)cc2oc3cc(O)c(O)cc3c(=O)c12	-	sulforhodamine / absorbance	MCF-7	>50 µM
CCCCCCCCCCCCCCCCOP(=O)([O-])OCC[n+]1ccccc1	-	MTT	MDA	45.8 µM
Nc1ccn(C[C@H]2COP(=O)(O)CO2)c(=O)n1	-	-	CD4+ T lymphocytes	44 µg/mL
CCCCC1=NC(N)=C2NC=NC2(O)N1OCP(=O)(O)O	-	-	HB611	92 µM
Nc1nc2c(ncn2COCCO)c(=O)[nH]1	-	-	SupT1	>250 µg/mL
Nc1nccc2c1ncn2CCOCCP(=O)(O)O	-	-	HB611	400 µM
COC(=O)[C@@H]1[C@H](c2cc(OC)c3nc4cc(C)c(C)cc4nc3c2)c2cc3c(cc2C2=NOC[C@@H]21)OCO3	-	-	P-388	1 µM
O=C1c2c(O)cc(O)cc2O[C@H](c2ccc(O)cc2)[C@H]1c1c(O)cc(O)c2c(=O)cc(-c3ccc(O)c(O)c3)oc12	-	XTT / absorbance	1A2	179 µM
C[N+]1(C)CCN(c2ncnc(Cl)c2[N+](=O)[O-])CC1	-	-	K562	>500.5 µg/mL
C/C(=C\C=C\C(C)[C@H]1CC[C@@]2(C)[C@@H]3CC[C@H]4C(C)(C)C(=O)CC[C@]4(C)C3=CC[C@]12C)C(=O)O	-	sulforhodamine / absorbance	HT-29	>50 µM
O=c1cc(-c2ccc(O)c(-c3c(O)cc(O)c4c(=O)cc(-c5ccc(O)cc5)oc34)c2)oc2cc(O)cc(O)c12	-	neutral red	BSC-1	<60 µg/mL
CCCCC1CN(S(C)(=O)=O)CCC12CCN(C1(C)CCN(C(=O)c3c(C)ncnc3C)CC1)CC2	-	-	CEM-R5	0.025 µM
COc1cc([C@@H]2c3cc4c(cc3[C@H](OC(C)=O)[C@@H]3COC(=O)[C@@H]23)OCO4)cc(OC)c1OC	-	-	MEL-28	0.55 µM
O=c1c2cc(O)c(O)cc2oc2cc(O)cc(O)c12	-	sulforhodamine / absorbance	ASK (Atlantic salmon kidney)	>50 µM
CCCCCCCCCCCCCCCCOP(=O)([O-])OCCC[n+]1ccccc1	-	MTT	MCF	50.4 µM
Nc1nc2c(ncn2[C@H]2CO[C@@H](CO)O2)c(=O)[nH]1	-	-	DU145	>500 µM
Nc1ccn(C[C@@H](CO)OCP(=O)(O)O)c(=O)n1	-	-	HB611	193 µM
O=c1cc(-c2ccc(Oc3c(O)cc4oc(-c5ccc(O)cc5)cc(=O)c4c3O)cc2)oc2cc(O)cc(O)c12	-	visual reading	BSC-1	<4 µg/mL
COc1cc([C@@H]2c3cc4c(cc3[C@H](OC(C)=O)[C@@H]3COC(=O)[C@@H]23)OCO4)cc2c1OC1(N3CCCC3)CCCCC1O2	-	-	MEL-28	2.02 µM
Nc1nc2c(ncn2[C@@H]2C[C@H](CO)[C@H]2CO)c(=O)[nH]1	-	-	CD4+ T lymphocytes	6.4 µg/mL
CC(C)(C)CC(C)(C)c1ccc(OCCOP(=O)([O-])OCC[N+](C)(C)Cc2ccccc2)cc1	-	MTT	HUVEC	>100 µM

For reference, 7 entries again:

structure | setting | method | cell line | value
O=[N+]([O-])c1c(C2CCCCCC2)ncnc1N1CC[N+]2(CC1)CC[N+]1(CCN(c3ncnc(C4CCCCCC4)c3[N+](=O)[O-])CC1)CC2 | - | - | GMK | >67.8 µg/mL
Cc1cn([C@H]2C[C@H](N=[N+]=[N-])[C@@H](CO)O2)c(=O)[nH]c1=O | - | - | HT-1080 | 5 µM
NC1=NC2C(C=CN2CC(CO)CCO)C(=O)N1 | - | - | BCBL-1 | 471 µM
O=C1c2c(O)cc(O)cc2O[C@H](c2ccc(O)cc2)[C@H]1c1c(O)cc(O)c2c(=O)cc(-c3ccc(O)c(O)c3)oc12 | - | XTT / absorbance | 1A2 | 179 µM
Nc1[nH]n2c(=O)cc(CN3CC[N+]4(CC3)CC[N+]3(CCN(Cc5cc(=O)n6[nH]c(N)c([N+](=O)[O-])c6n5)CC3)CC4)nc2c1[N+](=O)[O-] | - | - | GMK | >70.3 µg/mL
COc1cc([C@@H]2c3cc4c(cc3[C@H](OC(C)=O)[C@@H]3COC(=O)[C@@H]23)OCO4)cc2nc3cc(C)c(C)cc3nc12 | - | - | HT-29 | 4.8 µM
CC(C)(C)CC(C)(C)c1ccc(OCCOP(=O)([O-])OCC[N+](C)(C)Cc2ccccc2)cc1 | - | MTT | HUVEC | >100 µM